Changes are numbered by the printed parent chain.
B1: YMB2 IgG (antibody, V domains shown)
VH: EVQLQQSGAELVKPGASVKLSCTASGFNIKDTYMHWVKQRPEQGLEWIGRIDPENGNTKYDPKFQGKATITADTSSNTAYLQLSSLTSEDTAVYYCARFLITTGYFDYWGQGTTLTVSS
VL: DIVLTQSHKFMSTSVGDRVSITCKASQDVGTAVAWYQQKPGQSPKLLIYWASTRHTGVPDRFTGSGSGTDFTLTISNVQSEDLADYFCQQYSSYPLTFGAGTKLEIKR
B2: YMF10 IgG (antibody, V domains shown)
VH: EVQLQQSGAELVRSGASVKLSCTASGFNIKDYYMHWVKQRPEQGLEWIGWIDPENGDTEYAPKFQGKATMSADTSSNTAYLQLSSLTSEDTAVYYCNAGTPFEGLRRADYWGQGTTLTVSS
VL: B1 VL with L4M, I106L, K107N
B3: YMD1 IgG (antibody, V domains shown)
VH: B2 VH with Q5V, Q6E, S71T, R107K
VL: B1 VL with L4M, F10L, K45R, S76T, L96Y, A100G
B4: YMC3 IgG (antibody, V domains shown)
VH: QVQLKQSGAELVKPGASVKLSCKASGYTFTSYDINWVRQRPEQGLEWIGWIFPGDGSTKYNEKFKGKATLTTDKSSSTAYMQLSRLTSEDSAVYFCARGGLYFDYWGQGTTLTVSS
VL: DIQMTQSPSSLSASVGDRVTVTCRASQGIRNYLNWYQQKPGKAPKFLIYYTSRLLPGVPSRFSGSGSGTDYTLTINSLEQEDIATYYCQQGNTPPWTFGQGTKVEIKR
B5: YMH2 IgG (antibody, V domains shown)
VH: EVKLQQSGPELVKPGASVKISCKGSGYAISSSWMNWVKQRPGQGPEWIGRIYPGDGDTNYNGKFKGKATLTADKSSSTAYMQLSSLTSVDSAVYFCARGGLPYAVDYWGQGTSVTVSS
VL: B4 VL
B6: 26.10 IgG (antibody, V domains shown)
VH: QVELQQSGPELVKPGASVRMSCKSSGYIFTDFYMNWVRQSHGKSLDYIGYISPYSGVTGYNQKFKGKATLTVDKSSSTAYMELRSLTSEDSAVYYCAGSSGNKWAMDYWGHGASVTVSS
VL: DIVLTQSPASLAVSLGQRATISCRSSQSLVHSNGNTYLNWYQQKPGQPPKLLIYKVSNRFSGVPARFSGSGSESDFTLTIDPVEEDDAAIYYCSQTTHVPPTFGSGTKLEIKS
notes: also called anti-digoxin 26.10 IgG

Target: T1, Bacillus anthracis Protective Antigen (PA) (Bacillus anthracis, UniProt P13423 30-764)
Assay: not given

Binder	M (FL1-Height)
B1	28
B2	73
B3	46
B4	37
B5	109

Target: T1, Bacillus anthracis Protective Antigen …
Assay: flow cytometry of NlpA-ZZ spheroplasts displaying the IgG, labeled with PA-FITC

Binder	binding result
B6	no binding (tested: 50 nM)

From US20130303393A1 (RESEARCH DEVELOPMENT FOUNDATION, published 2013)
